## Fitness effects across NS2B and the NS3 protease domain of Zika virus

The measurements come from Ni et al. 2025 (doi:10.1038/s41467-025-63602-z).

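Libraries of single mutants were passaged as virus pools on Huh-7.5 cells. Deep sequencing gave the change in frequency of each mutant relative to wild type, averaged over three replicate libraries (two for positions 207-308). The aim was to find sites where inhibitor-binding pockets cannot change.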

Protein: NS2B and the protease part of NS3 of Zika virus strain MR766. Positions count along the chain below; NS2B spans 2-131 and NS3 starts at 132.
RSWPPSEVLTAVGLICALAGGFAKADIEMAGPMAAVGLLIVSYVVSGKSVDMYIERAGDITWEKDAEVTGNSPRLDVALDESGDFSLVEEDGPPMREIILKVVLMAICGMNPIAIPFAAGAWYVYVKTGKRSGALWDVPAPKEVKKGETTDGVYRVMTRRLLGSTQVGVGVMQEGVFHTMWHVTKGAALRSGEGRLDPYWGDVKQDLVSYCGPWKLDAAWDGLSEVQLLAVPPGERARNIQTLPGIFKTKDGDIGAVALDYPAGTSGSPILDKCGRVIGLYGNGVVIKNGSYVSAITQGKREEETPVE

Values are log2 effects on growth: 0 is wild type, lower means poorer growth. A change reads original residue, position, new residue. The authors count -1 or higher as tolerated. Position 1 is the last residue of NS2A.

| # | change | effect (log2) |
|---|---|---|
| 1 | P5A | -2.99 |
| 2 | E7V | -7.39 |
| 3 | T10N | -3.66 |
| 4 | A11W | -4.91 |
| 5 | A17T | -0.14 |
| 6 | A19Y | -6.12 |
| 7 | G21S | -0.73 |
| 8 | D26R | -3.76 |
| 9 | E28D | -1.99 |
| 10 | E28L | -4.05 |
| 11 | G31H | -5.55 |
| 12 | M33F | 0.35 |
| 13 | A35E | -5.81 |
| 14 | V36Y | -5.29 |
| 15 | Y43V | -6.48 |
| 16 | V45G | -6.62 |
| 17 | K48E | -5.58 |
| 18 | V50G | -6.03 |
| 19 | Y53Q | -5.48 |
| 20 | E55S | -3.59 |
| 21 | E63G | -4.50 |
| 22 | E63M | -2.96 |
| 23 | A66I | -6.11 |
| 24 | P73S | -7.85 |
| 25 | L75D | -6.48 |
| 26 | E81I | -5.69 |
| 27 | D84L | -7.35 |
| 28 | V88Q | -4.19 |
| 29 | E89N | 0.80 |
| 30 | E90M | -1.32 |
| 31 | I98L | -1.41 |
| 32 | I99T | -1.64 |
| 33 | V102E | -5.14 |
| 34 | V103L | -1.06 |
| 35 | N111Y | -2.36 |
| 36 | F117* | -7.04 |
| 37 | F117L | -1.07 |
| 38 | V126L | -1.22 |
| 39 | V126R | -1.76 |
| 40 | K127* | -6.90 |
| 41 | G129H | -5.20 |
| 42 | K130C | -5.30 |
| 43 | R131I | -5.92 |
| 44 | G133A | -6.60 |
| 45 | D137V | -7.20 |
| 46 | K142V | -2.19 |
| 47 | E143Y | -1.38 |
| 48 | K145F | -1.78 |
| 49 | K145S | -2.04 |
| 50 | E148R | -2.11 |
| 51 | T149H | -5.69 |
| 52 | D151T | -2.86 |
| 53 | Y154* | -6.20 |
| 54 | R155F | -5.49 |
| 55 | V156P | -7.11 |
| 56 | G163T | -5.15 |
| 57 | T165F | 1.01 |
| 58 | V169D | -5.27 |
| 59 | Q173D | -3.00 |
| 60 | E174* | -5.41 |
| 61 | E174P | -6.88 |
| 62 | G175E | -4.25 |
| 63 | K185A | -4.16 |
| 64 | A187Q | -4.77 |
| 65 | A187Y | -4.62 |
| 66 | R190A | -4.91 |
| 67 | S191H | -2.63 |
| 68 | G192S | -3.96 |
| 69 | E193T | -0.46 |
| 70 | G194C | -4.84 |
| 71 | L196V | -2.29 |
| 72 | W200F | -6.09 |
| 73 | V203C | -2.90 |
| 74 | V203K | -6.71 |
| 75 | V203R | -8.30 |
| 76 | Q205L | -3.98 |
| 77 | P213Q | -3.70 |
| 78 | W214F | -7.24 |
| 79 | K215D | -5.93 |
| 80 | K215E | -6.91 |
| 81 | L216Q | -6.62 |
| 82 | W220N | -6.54 |
| 83 | D221P | -6.51 |
| 84 | D221Q | -4.73 |
| 85 | G222Q | -0.90 |
| 86 | P233T | -6.60 |
| 87 | A237T | 1.18 |
| 88 | R238H | -0.06 |
| 89 | Q241G | -5.60 |
| 90 | Q241S | -5.58 |
| 91 | T242* | -7.69 |
| 92 | T242W | -5.35 |
| 93 | L243W | -4.59 |
| 94 | T249G | -6.13 |
| 95 | K250P | -1.46 |
| 96 | D251Y | -5.61 |
| 97 | G252T | -3.97 |
| 98 | A256E | -6.05 |
| 99 | A258T | -6.73 |
| 100 | D260G | -5.96 |
| 101 | Y261G | -4.18 |
| 102 | Y261W | -2.10 |
| 103 | P262D | -4.46 |
| 104 | P262F | -4.45 |
| 105 | P262T | -5.96 |
| 106 | A263R | -6.60 |
| 107 | G264F | -4.91 |
| 108 | T265M | -4.34 |
| 109 | T265W | -3.27 |
| 110 | L271Y | -4.43 |
| 111 | K273W | -3.56 |
| 112 | R276G | -3.77 |
| 113 | G282C | -4.31 |
| 114 | G282D | -2.75 |
| 115 | G282K | -4.38 |
| 116 | I287P | -1.02 |
| 117 | G290S | -6.77 |
| 118 | V293G | -6.33 |
| 119 | Q298L | -6.94 |
| 120 | T305L | 0.32 |
| 121 | E308Q | 0.72 |

Stop codons (*) centre on -7 and mark the level of dead virus. Values above 0 are not proof of better growth: six high scorers were tested one by one, five grew less well than wild type and one about as well. The region was split into three libraries (1-103, 104-206, 207-308).